## In-gel DMS probing of monomeric and dimeric HIV-1 RNA

RNA: 5' end of the HIV-1 NL4-3 genome, made in vitro. Positions 1-437 read:
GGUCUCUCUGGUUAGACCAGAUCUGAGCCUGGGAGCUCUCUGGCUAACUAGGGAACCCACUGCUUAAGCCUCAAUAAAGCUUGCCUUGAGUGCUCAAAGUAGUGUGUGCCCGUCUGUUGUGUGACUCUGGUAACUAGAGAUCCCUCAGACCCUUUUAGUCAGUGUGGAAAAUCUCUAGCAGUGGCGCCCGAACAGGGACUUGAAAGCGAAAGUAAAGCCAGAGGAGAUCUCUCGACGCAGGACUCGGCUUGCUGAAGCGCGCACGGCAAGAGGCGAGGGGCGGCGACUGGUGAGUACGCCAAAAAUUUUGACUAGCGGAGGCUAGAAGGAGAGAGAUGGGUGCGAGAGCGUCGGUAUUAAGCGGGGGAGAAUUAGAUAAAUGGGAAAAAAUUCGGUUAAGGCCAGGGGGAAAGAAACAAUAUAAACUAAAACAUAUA

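Mutant RNA libraries with 1G, 2G or 3G starts, with or without cap, were folded at 37 °C for 30 min. High salt was 300 mM KCl and 5 mM MgCl2, low salt 40 mM KCl and 0.1 mM MgCl2; monomer and dimer were parted on a native gel. Gel slices were treated with 170 mM dimethyl sulfate for 15 min at 37 °C and read by mutational profiling against an ethanol control.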

Scale: normalised reactivity, A and C only; low values point to paired or protected bases, higher values to unpaired ones.
One numbering serves 1G, 2G and 3G.
A position is written with its base.

{"position": "A19", "domain": "TAR", "3G capped high-salt dimer": 0.03, "3G capped high-salt monomer": 0.02, "3G capped low-salt dimer": 0.03, "3G capped low-salt monomer": 0.02}
{"position": "A21", "domain": "TAR", "3G capped high-salt dimer": 0.56, "3G capped high-salt monomer": 0.59, "3G capped low-salt dimer": 0.52, "3G capped low-salt monomer": 0.53}
{"position": "C23", "domain": "TAR", "3G capped high-salt dimer": 1.22, "3G capped high-salt monomer": 1.44, "3G capped low-salt dimer": 1.23, "3G capped low-salt monomer": 1.38}
{"position": "A26", "domain": "TAR", "3G capped high-salt dimer": 0.08, "3G capped high-salt monomer": 0.07, "3G capped low-salt dimer": 0.08, "3G capped low-salt monomer": 0.06}
{"position": "C28", "domain": "TAR", "3G capped high-salt dimer": 0.03, "3G capped high-salt monomer": 0.02, "3G capped low-salt dimer": 0.03, "3G capped low-salt monomer": 0.02}
{"position": "C29", "domain": "TAR", "3G capped high-salt dimer": 0.07, "3G capped high-salt monomer": 0.09, "3G capped low-salt dimer": 0.08, "3G capped low-salt monomer": 0.09}
{"position": "A34", "domain": "TAR", "3G capped high-salt dimer": 1.05, "3G capped high-salt monomer": 1.21, "3G capped low-salt dimer": 1.03, "3G capped low-salt monomer": 1.10}
{"position": "C36", "domain": "TAR", "3G capped high-salt dimer": 0.03, "3G capped high-salt monomer": 0.02, "3G capped low-salt dimer": 0.03, "3G capped low-salt monomer": 0.02}
{"position": "C38", "domain": "TAR", "3G capped high-salt dimer": 0.03, "3G capped high-salt monomer": 0.02, "3G capped low-salt dimer": 0.03, "3G capped low-salt monomer": 0.02}
{"position": "C40", "domain": "TAR", "3G capped high-salt dimer": 0.03, "3G capped high-salt monomer": 0.02, "3G capped low-salt dimer": 0.03, "3G capped low-salt monomer": 0.02}
{"position": "C44", "domain": "TAR", "3G capped high-salt dimer": 0.03, "3G capped high-salt monomer": 0.02, "3G capped low-salt dimer": 0.03, "3G capped low-salt monomer": 0.02}
{"position": "A46", "domain": "TAR", "3G capped high-salt dimer": 0.03, "3G capped high-salt monomer": 0.02, "3G capped low-salt dimer": 0.03, "3G capped low-salt monomer": 0.02}
{"position": "A47", "domain": "TAR", "3G capped high-salt dimer": 0.11, "3G capped high-salt monomer": 0.11, "3G capped low-salt dimer": 0.11, "3G capped low-salt monomer": 0.11}
{"position": "C48", "domain": "TAR", "3G capped high-salt dimer": 0.03, "3G capped high-salt monomer": 0.02, "3G capped low-salt dimer": 0.03, "3G capped low-salt monomer": 0.02}
{"position": "A50", "domain": "TAR", "3G capped high-salt dimer": 0.11, "3G capped high-salt monomer": 0.11, "3G capped low-salt dimer": 0.12, "3G capped low-salt monomer": 0.10}
{"position": "A54", "domain": "TAR", "3G capped high-salt dimer": 0.12, "3G capped high-salt monomer": 0.13, "3G capped low-salt dimer": 0.14, "3G capped low-salt monomer": 0.11}
{"position": "A55", "domain": "TAR", "3G capped high-salt dimer": 0.19, "3G capped high-salt monomer": 0.18, "3G capped low-salt dimer": 0.17, "3G capped low-salt monomer": 0.15}
{"position": "C56", "domain": "TAR", "3G capped high-salt dimer": 0.03, "3G capped high-salt monomer": 0.02, "3G capped low-salt dimer": 0.03, "3G capped low-salt monomer": 0.02}
{"position": "C57", "domain": "TAR", "3G capped high-salt dimer": 0.03, "3G capped high-salt monomer": 0.02, "3G capped low-salt dimer": 0.03, "3G capped low-salt monomer": 0.02}
{"position": "C58", "domain": "PolyA", "3G capped high-salt dimer": 0.03, "3G capped high-salt monomer": 0.02, "3G capped low-salt dimer": 0.03, "3G capped low-salt monomer": 0.02}
{"position": "A59", "domain": "PolyA", "3G capped high-salt dimer": 0.68, "3G capped high-salt monomer": 0.82, "3G capped low-salt dimer": 0.67, "3G capped low-salt monomer": 0.78}
{"position": "C60", "domain": "PolyA", "3G capped high-salt dimer": 0.60, "3G capped high-salt monomer": 0.80, "3G capped low-salt dimer": 0.58, "3G capped low-salt monomer": 0.79}
{"position": "C63", "domain": "PolyA", "3G capped high-salt dimer": 0.49, "3G capped high-salt monomer": 0.64, "3G capped low-salt dimer": 0.51, "3G capped low-salt monomer": 0.67}

The measurements come from Ye et al. 2022 (doi:10.1038/s41594-022-00746-2).